“And” between values parts separate entries of the source, which are not always exact repeats. Identical values can stand only once.

The source of these data is patent US20150104459A1, “Compositions and Methods for the Therapy and Diagnosis of Influenza” (published 2015).

For assay [1], the target named is T1, recombinant homotrimeric HA, A/Solomon Islands/3/06 H1N1 (Influenza A virus A/Solomon …). Briefly: trimeric HA microarray; transfection supernatant set 2.
The target in assay [2] is T2, recombinant homotrimeric HA, A/California/4/09 H1N1 (Influenza A virus A/California/4/09 …). The description is as above.
Assay [3] concerns the target T1, recombinant homotrimeric HA, A/Solomon …. Briefly: trimeric HA microarray; transfection supernatant set 3.
The target of assay [4] is T2, recombinant homotrimeric HA, …. Described as above.
Assay [5] concerns the target T1, recombinant homotrimeric HA, A/Solomon …. In words: trimeric HA microarray; transfection supernatant set 1.
Assay [6] addresses T2, recombinant homotrimeric HA, …. Described as above.
In assay [7] the target is T1, recombinant homotrimeric HA, A/Solomon …. Briefly: trimeric HA microarray; transfection supernatant set 5.
Assay [8] concerns the target T2, recombinant homotrimeric HA, …. The description is as above.
Assay [9] concerns the target recombinant homotrimeric HA, A/Wisconsin/67/05 H3N2 (Influenza A virus A/Wisconsin/67/05 …).
Assay [10] addresses T1, recombinant homotrimeric HA, A/Solomon …. In words: trimeric HA microarray; transfection supernatant set 4.
The target of assay [11] is T2, recombinant homotrimeric HA, …. Described as above.
Assay [12] deals with T3, recombinant homotrimeric HA, A/swine/Ontario/01911-2/99 H4N6 (Influenza A virus …). Briefly: trimeric HA microarray; transfection supernatant set 3.
The target of assay [13] is recombinant homotrimeric HA, A/chicken/Vietnam/NCVD-016/08 H5N1 (Influenza A virus …). The description is as above.
The target in assay [14] is recombinant homotrimeric HA, A/Netherlands/219/03 H7N7 (Influenza A virus A/Netherlands/219/03 …).
Assay [15] concerns the target T4, recombinant homotrimeric HA, A/Egypt/3300-NAMRU3/08 H5N1 (Influenza A virus …). Briefly: trimeric HA microarray; transfection supernatant set 3.
Assay [16] deals with recombinant homotrimeric HA, A/Hong Kong/1073/99 H9N2 (Influenza A virus A/Hong Kong/1073/99 …). Described as above.
Assay [17] has as its target recombinant homotrimeric HA, A/northern shoveler/California/HKWF115/07 (Influenza A virus A/northern …). The assay is described as above.
Assay [18] has as its target recombinant homotrimeric HA, A/Japan/305/57 H2N2 (Influenza A virus A/Japan/305/57 (H2N2)).
The target in assay [19] is T3, recombinant homotrimeric HA, …. In words: trimeric HA microarray; transfection supernatant set 4.
Assay [20] deals with T4, recombinant homotrimeric HA, …. The assay is described as above.

B1: TCN-504 (3251_K17) (antibody, V domains shown)
VH: QVQLQESGPGLVKPSETLSLTCAVSGVSISNIDFYWGWIRQPPGKGLEWIGNIYYTGITFYNPSLSSRVAISIDTSKNQFSLTLTSVTAADTAMYYCARHYGDSEAINDAFDIWGQGTMLTVSS
VL: EIVMTQSPATLSVSPGERATLSCRASQSVGNSLAWYQQRPGQAPRLLIYGASTRATGIPPRFSGSGSGTEFTLTISSLQTEDFAVYYCQQYINWRPLSFGGGTKVEIK
With B1, the “Trimeric HA Binding: RLU” value was 31400 RLU in assay [1]; 15600 RLU in assay [2]; 32700 RLU in assay [3]; 18600 RLU in assay [4]; 29800 RLU in [5]; 18300 RLU in [6]. Further, the “Trimeric HA Binding: RLU” value was 30100 RLU in assay [7]; 17600 RLU in assay [8]; 21600 RLU and 21400 RLU and 20600 RLU and 38100 RLU and 14300 RLU in assay [9]; 14600 RLU in assay [10]; 549 RLU in [11].

B2: TCN-532 (5262_H18) (antibody, V domains shown)
VH: QVQLQESGPGLVKPSETLSLTCTVSGGSVSSETYYWSWIRQPPGKGLEWIGYIYYIGNTDYRPSLKSRVTISLDTSKNQFSLKLSSVTAADTAVYYCARGAYYDSSGYPAFYIWGQGTMVTVSS
VL: QSVLTQPPSVSGAPGQRVTISCTGSSSNIGSDYDVHWYKQLPGTAPKLLIFGNSNRPSGVPDRFSGSKSGTSASLAITGLQAEDEADYYCQSYDSSLSGFHVFGSGTKVTVL
Consider B2, for which the “Trimeric HA Binding: RLU” value turned out to be 29 RLU in assay [12]; 59 RLU in [3]; 29 RLU in assay [13]; 9970 RLU in [9]; 42 RLU in [14].

B3: TCN-523 (5248_A17) (antibody, V domains shown)
VH: QVQLVQSGAEVKKPGSSVKVSCKASGGSFSNYAFSWVRQAPGQGLEWMGGTIPLLGTTNYAQKFQGRVTISADQFTSTAYMELGSLRSEDTAVYYCTRRKMTTAFDSWGQGTLVTVSS
VL: QPVLTQPPSASASLGASVTLTCTLSSAYSNYKVDWYQQRPGKGPRFVMRVGTGGIVGSKGDGIPDRFSVLGSGLNRYLTIKNIQEEDESDYHCGADHGSGSNFVSPYVFGGGTKLTVL
As for B3, the “Trimeric HA Binding: RLU” value in assay [1] is 3270 RLU; in [3] it was 11000 RLU; in assay [5], 6780 RLU; in assay [7], 37600 RLU; in assay [10], 371 RLU.

B4: TCN-530 (5248_H10a) (antibody, V domains shown)
VH: QVQLVQSGAEVRKPGSSVKVSCKASGGPFMSYAIGWVRQAPGQGLEWMGGINPVFGRPHYAQKFQGRVTIATDDSTKTSYMELSSLTSEDTGMYYCASRYSRSSPGTFESWGQGTLVTVSS
VL: EIVMTQFPATLSVSPGERVTLSCRASQSVSNNLAWYQQKPGQPPRLLIYDASTRATGVPAKFSGTGSGTEFTLSISSLQSEDFAVYYCQQYHNWPPSYSFGLGTKLEIK
As for B4, the “Trimeric HA Binding: RLU” value turned out to be 25500 RLU in [15]; 13800 RLU in assay [3]; 10200 RLU in [16]; 21200 RLU in assay [4]; 23500 RLU in [17]; 18000 RLU in [13].

B5: TCN-536 (5095_N01) (antibody, V domains shown)
VH: QVQLQQWGAGLLKPSETLSLTCAVYGGSFSVSGYYWSWIRQPPGRGLEWIGEISHGGSTNYNPSLKSRVTISVDTTKNQFSLRLSSVTAADTAVYYCARGTDPDTEVYCRVGNCAAFDYWGQGSLVTVSS
VL: EIILAQSPGTLSLSPGERATLSCRASQFVSTRSLAWYQQRPGQAPRLLIYGASSRATGIPDRFSGSGSGTDFTLTISRLEPEDFAVYYCQHYGYSPRYAFGQGSKVEIK
With B5, the “Trimeric HA Binding: RLU” value in assay [9] turned out to be 20600 RLU; in assay [18] it was 260 RLU; in assay [19], 168 RLU.

B6: TCN-535 (5246_P19) (antibody, V domains shown)
VH: QVQLVQSGSEVKKPGTSVKVSCTASGSVFTNYGISWVRQAPGQGLEWMGGIIPLFGAAKYAQKFQGRVTITADESTKTVYMELSRLTSKDTAIYFCAKAPRVYEYYFDQWGQGTPVTVSS
VL: EIVLTQSPGTLSLSPGERATLSCRASQSVSSSQLAWYQQKPGQAPRLIIYGASTRATGIPDRFSGSGSGTDFTLTIGRLEPEDFAVFFCQQYSTSPPTFGQGTKVDFK
For B6, the entries for the “Trimeric HA Binding: RLU” value in assay [20], in [10] and in assay [11] were 25300 RLU, 836 RLU and 25200 RLU, respectively.
